Results of unrelated studies side by side (data: NIAID ChemDB).

Shared fields: growth or infection tests; agent: HIV-1

ECn is the concentration giving n% inhibition of infection, replication or growth. Lines come from different laboratories, so protocols vary.

{"compound": "CCCCCCCCCCCCCCCCCCOC1OC(COS(=O)(=O)O)C(OC2OC(COS(=O)(=O)O)C(OC3OC(COS(=O)(=O)O)C(OC4OC(COS(=O)(=O)O)C(OC5OC(COS(=O)(=O)O)C(OC6OC(COS(=O)(=O)O)C(OS(=O)(=O)O)C(OS(=O)(=O)O)C6O)C(OS(=O)(=O)O)C5O)C(O)C4OS(=O)(=O)O)C(O)C3OS(=O)(=O)O)C(OS(=O)(=O)O)C2O)C(OS(=O)(=O)O)C1O", "cells": "PBL", "strain": "IIIB", "endpoint": "EC50", "read by": "cytopathic effect / MTT", "result": "13.1 µg/mL"}
{"compound": "O=C(O)P(=O)(O)O", "strain": "IIIB", "endpoint": "EC50", "read by": "cytopathic effect / MTT", "result": "95.1 µM"}
{"compound": "C=C(C)[C@@]1(O)[C@H](OC(C)=O)[C@@H]2[C@H](OC(=O)c3ccccc3)[C@@]3(C)O[C@@]4([C@@H]3OC(=O)c3ccccc3)[C@@H](OC(C)=O)[C@@H](C)C[C@H]4[C@@]2(O)[C@H](C)[C@@H]1OC(C)=O", "cells": "C8166", "strain": "IIIB", "endpoint": "EC50", "read by": "cytopathic effect / syncytia", "result": "11.89 µg/mL"}
{"compound": "Nc1ccn([C@H]2CC[C@@H](CO)O2)c(=O)n1", "cells": "ATH8", "strain": "IIIB", "endpoint": "EC50", "read by": "cytopathic effect / trypan blue", "result": "<0.2 µM"}
{"compound": "Cc1cn([C@@H]2O[C@H](CO[Si](C)(C)C(C)(C)C)[C@]3(C(N)=CS(=O)(=O)N3C)[C@H]2O[Si](C)(C)C(C)(C)C)c(=O)n(C)c1=O", "mutations": "RT-Y181C", "cells": "CEM", "endpoint": "EC50", "read by": "cytopathic effect", "result": ">250 µM"}
{"compound": "CCc1cc(CCc2nc3c(F)cccc3o2)c(=O)[nH]c1C", "cells": "MT-4", "strain": "IIIB", "endpoint": "EC95", "read by": "p24", "result": "0.375 µM"}
{"compound": "CC(=O)Oc1ccc(COP(=O)(OCc2ccc(OC(C)=O)cc2)OC[C@@H]2C=C[C@H](n3cc(C)c(=O)[nH]c3=O)O2)cc1", "cells": "CEM + CEM/O", "strain": "IIIB", "endpoint": "EC50", "read by": "cytopathic effect / syncytia", "result": "0.17 µM"}
{"compound": "CCc1cc(SCc2nc3c(Cl)ccc(Cl)c3o2)c(=O)[nH]c1C", "cells": "MT-4", "strain": "IIIB", "endpoint": "EC95", "read by": "p24", "result": "0.0375 µM"}
{"compound": "C=C(C)[C@@]1(O)[C@H](O)[C@@H]2[C@H](OC(C)=O)[C@@]3(C)O[C@@]4([C@@H]3OC(=O)c3ccccc3)[C@@H](OC(C)=O)[C@@H](C)C[C@H]4[C@@]2(O)[C@H](C)[C@@H]1OC(=O)c1ccccc1", "cells": "C8166", "strain": "IIIB", "endpoint": "EC50", "read by": "cytopathic effect / syncytia", "result": "62.49 µg/mL"}
{"compound": "Cc1cn([C@H]2C=C[C@@H](COP3(=O)Oc4ccccc4C(C)O3)O2)c(=O)[nH]c1=O", "cells": "CEM + CEM/O", "strain": "IIIB", "endpoint": "EC50", "read by": "cytopathic effect / syncytia", "result": "0.22 µM"}
{"compound": "Nc1nc2c(ncn2CC#CCO)c(=O)[nH]1", "cells": "ATH8", "strain": "IIIB", "endpoint": "EC50", "read by": "cytopathic effect / trypan blue", "result": ">500 µM"}
{"compound": "CCc1cc(CNc2nc3ccccc3o2)c(=O)[nH]c1C", "cells": "MT-4", "strain": "IIIB", "endpoint": "EC50", "read by": "p24", "result": "<10 µM"}
{"compound": "Cc1cn([C@H]2C[C@H](N=[N+]=[N-])[C@@H](CO)O2)c(=O)[nH]c1=O", "strain": "IIIB", "endpoint": "EC50", "read by": "cytopathic effect / MTT", "result": "0.3 µM"}
{"compound": "Cc1cn([C@H]2C[C@H](N=[N+]=[N-])[C@@H](CO)O2)c(=O)[nH]c1=O", "cells": "CEMx174 + CEM", "strain": "RF", "endpoint": "EC50", "read by": "p24 / RT activity", "result": "0.055 µM"}
{"compound": "Nc1ccn(C/C=C/CCl)c(=O)n1", "cells": "ATH8", "strain": "IIIB", "endpoint": "EC50", "read by": "cytopathic effect / trypan blue", "result": ">100 µM"}
{"compound": "COC(=O)CC(OP(=O)(OC[C@@H]1C=C[C@H](n2cc(C)c(=O)[nH]c2=O)O1)OC(CC(=O)OC)c1ccc(OC(C)=O)cc1)c1ccc(OC(C)=O)cc1", "cells": "CEM + CEM/O", "strain": "IIIB", "endpoint": "EC50", "read by": "cytopathic effect / syncytia", "result": "0.25 µM"}
{"compound": "CCc1cc(CCc2nc3c(C)cccc3o2)c(=O)[nH]c1C", "cells": "MT-4", "strain": "IIIB", "endpoint": "EC50", "read by": "p24", "result": "<0.1 µM"}
{"compound": "CCOCn1c([Se]c2ccccc2)c(CC)c(=O)[nH]c1=O", "cells": "MT-2", "strain": "LAI", "endpoint": "EC50", "read by": "cytopathic effect / MTT", "result": "<0.04 µM"}
{"compound": "O=S(=O)(O)OCC1OC(O)C(OS(=O)(=O)O)C(OC2OC(COS(=O)(=O)O)C(OS(=O)(=O)O)C(OC3OC(COS(=O)(=O)O)C(OS(=O)(=O)O)C(OC4OC(COS(=O)(=O)O)C(OS(=O)(=O)O)C(OC5OC(COS(=O)(=O)O)C(OS(=O)(=O)O)C(OS(=O)(=O)O)C5OS(=O)(=O)O)C4OS(=O)(=O)O)C3OS(=O)(=O)O)C2OS(=O)(=O)O)C1OS(=O)(=O)O", "cells": "MT-4", "strain": "IIIB", "endpoint": "EC50", "read by": "cytopathic effect / MTT", "result": "163 µg/mL"}
{"compound": "CCc1cc(CCc2nc3c(Cl)cccc3o2)c(=O)[nH]c1C", "cells": "MT-4", "strain": "IIIB", "endpoint": "EC50", "read by": "p24", "result": "<0.1 µM"}
{"compound": "Cc1ccnc2c1NC(=O)c1cccnc1N2C1CC1", "strain": "IIIB", "endpoint": "EC50", "read by": "cytopathic effect / MTT", "result": "0.2 µM"}
{"compound": "CC(C)(C)NC(=O)c1c(CCC(O)Cc2ccc3ccccc3c2C(=O)NC(C)(C)C)ccc2ccccc12", "cells": "CEM + CEM-SS", "strain": "RF", "endpoint": "EC50", "read by": "cytopathic effect / MTT", "result": "11 µM"}
{"compound": "C=C(C)[C@@]1(O)[C@H](OC(C)=O)[C@@H]2[C@H](OC(C)=O)[C@@]3(C)O[C@@]4([C@@H]3OC(=O)c3ccccc3)[C@@H](OC(C)=O)[C@@H](C)C[C@H]4[C@@]2(O)[C@H](C)[C@@H]1OC(=O)c1ccccc1", "cells": "C8166", "strain": "IIIB", "endpoint": "EC50", "read by": "cytopathic effect / syncytia", "result": "67.68 µg/mL"}
{"compound": "CC(=O)N1CCC(C(=O)N(CCCN2CCC(Cc3ccc(C(N)=O)cc3)CC2)c2ccc(C)c(Cl)c2)CC1", "cells": "U87 (CD4+ CCR5+) + U87", "strain": "R5X4 subtype B_2 recombinant", "endpoint": "EC50", "read by": "luciferase", "result": "0.0063 µM"}
{"compound": "Cc1cn([C@H]2C=C[C@@H](COP(=O)(O[C@H](C)c3ccccc3)O[C@H](C)c3ccccc3)O2)c(=O)[nH]c1=O", "cells": "CEM + CEM/O", "strain": "IIIB", "endpoint": "EC50", "read by": "cytopathic effect / syncytia", "result": "113 µM"}
{"compound": "Cc1cn([C@@H]2O[C@H](CO[Si](C)(C)C(C)(C)C)[C@]3(C(N)=CS(=O)(=O)N3C)[C@H]2O[Si](C)(C)C(C)(C)C)c(=O)n(C(=O)OC(C)(C)C)c1=O", "mutations": "RT-E138K", "cells": "CEM", "endpoint": "EC50", "read by": "cytopathic effect", "result": ">10 µM"}
{"compound": "CC1(C)CC[C@]2(C(=O)O)CC[C@]3(C)C(=CC[C@@H]4[C@@]5(C)CC[C@H](O)C(C)(C)[C@@H]5CC[C@]43C)[C@@H]2C1", "cells": "PBMC/HIV-1 + PBMC", "strain": "Primary clinical isolate Rome", "endpoint": "EC50", "read by": "p24", "result": "24.6 µM"}
{"compound": "Cc1cn([C@H]2C[C@H](N=[N+]=[N-])[C@@H](CO)O2)c(=O)[nH]c1=O", "cells": "CD4+HELA + HeLa", "endpoint": "EC50", "read by": "p24", "result": "0.16 µM"}
{"compound": "CCCCCCCCCCCCOC1OC(COS(=O)(=O)O)C(OC2OC(COS(=O)(=O)O)C(OC3OC(COS(=O)(=O)O)C(OC4OC(COS(=O)(=O)O)C(OC5OC(COS(=O)(=O)O)C(OC6OC(COS(=O)(=O)O)C(OS(=O)(=O)O)C(OS(=O)(=O)O)C6O)C(OS(=O)(=O)O)C5OS(=O)(=O)O)C(O)C4OS(=O)(=O)O)C(OS(=O)(=O)O)C3O)C(OS(=O)(=O)O)C2O)C(O)C1OS(=O)(=O)O", "cells": "MT-4", "strain": "IIIB", "endpoint": "EC50", "read by": "cytopathic effect / MTT", "result": "1 µg/mL"}
{"compound": "Cc1cn([C@@H]2O[C@H](CO[Si](C)(C)C(C)(C)C)[C@@]3(NS(=O)(=O)C=C3N)[C@H]2O[Si](C)(C)C(C)(C)C)c(=O)[nH]c1=O", "mutations": "RT-K103N", "cells": "CEM", "endpoint": "EC50", "read by": "cytopathic effect", "result": "5.5 µM"}
{"compound": "CCc1cc(CCc2nc3ccccc3o2)c(=O)[nH]c1C", "cells": "MT-4", "strain": "IIIB", "endpoint": "EC50", "read by": "p24", "result": "<0.05 µM"}
{"compound": "CCCCCCCCCCCCCCCCOC1OC(COS(=O)(=O)O)C(O)C(OC2OC(COS(=O)(=O)O)C(OS(=O)(=O)O)C(OC3OC(COS(=O)(=O)O)C(O)C(OC4OC(COS(=O)(=O)O)C(OS(=O)(=O)O)C(OC5OC(COS(=O)(=O)O)C(OS(=O)(=O)O)C(OS(=O)(=O)O)C5OS(=O)(=O)O)C4OS(=O)(=O)O)C3OS(=O)(=O)O)C2OS(=O)(=O)O)C1OS(=O)(=O)O", "cells": "MT-4", "strain": "IIIB", "endpoint": "EC50", "read by": "cytopathic effect / MTT", "result": "12 µg/mL"}